Laboratory results: PubChem BioAssay AID624099 (ICCB-Longwood, 2012)

Assay: 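Human genes that papillomavirus E2 requires to repress the HPV18 LCR promoter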 (primary screen)
Cell system: human C33A cervical carcinoma cells (HPV-negative) stably expressing BPV1 E2 and an HPV18 LCR luciferase reporter
Reagent: siRNA pool against human genes, 40 nM
Duration: 72 h
Measured: 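HPV18 LCR reporter light per well, converted to plate-wise z-scores that exclude control wells, and averaged over triplicate plates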
Direction: mean z-score and z-score: higher = stronger reporter signal, weaker E2 silencing
Call rule: 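Mean z ≥ 2 together with z ≥ 2 in two or more of the three replicates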
This is an unselected part of about 21,000 reagents tested. 497 of all reagents (2.4%) were called active. 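Higher z means weaker E2 silencing; only reporter increases were scored, and knock-downs that hurt cell survival may mask genuine repressor factors.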 Unmarked entries are inactive. The numbers tell different reagents against one gene apart.

gene,pool no.,mean z-score,"z-score, replicate A","z-score, replicate B","z-score, replicate C"
PPP1R3B (GeneID 79660),1,-1.04,-0.96,-1.05,-1.11
WLS (GeneID 79971),1,-0.02,-0.22,0.24,-0.09
APC2 (GeneID 10297),1,0.67,0.85,0.51,0.64
DEFB108B (GeneID 245911),1,1.12,0.9,1.43,1.04
MLLT10 (GeneID 8028),1,1.52,1.42,1.81,1.32
WWOX (GeneID 51741),1,-0.91,-1.07,-0.91,-0.76
FGD4 (GeneID 121512),1,-0.73,-0.8,-0.57,-0.81
LOC389858 (retired record) (GeneID 389858),1,0.49,0.24,0.47,0.76
MCM4 (GeneID 4173),1,1.02,0.76,1.06,1.25
ANAPC11 (GeneID 51529),1,0.08,0.02,0.2,0.02
NAXE (GeneID 128240),1,-0.94,-1.16,-0.79,-0.86
TBC1D24 (GeneID 57465),1,-2.19,-2.35,-2.08,-2.15
EFCAB7 (GeneID 84455),1,-0.55,-0.58,-0.48,-0.6

2 entries from above, limited to “mean z-score”:
PPP1R3B (GeneID 79660): -1.04
WLS (GeneID 79971): -0.02

Next reagents follow:
gene,pool no.,mean z-score,"z-score, replicate A","z-score, replicate B","z-score, replicate C"
S1PR3 (GeneID 1903),1,-1.49,-1.5,-1.36,-1.6
S1PR3 (GeneID 1903),2,0.28,0.36,0.31,0.17
NBEA (GeneID 26960),1,-1.14,-1.71,-0.69,-1.01
CAND2 (GeneID 23066),1,0.31,0.44,0.16,0.34
SYNGR1 (GeneID 9145),1,-0.04,0.07,-0.08,-0.12
UCK2 (GeneID 7371),1,-0.7,-1.1,-0.7,-0.3
GNPDA1 (GeneID 10007),1,-0.4,-0.45,-0.37,-0.39
ANKRD33 (GeneID 341405),1,0.66,0.72,0.62,0.66
LINC02111 (GeneID 401177),1,-1.7,-1.39,-1.84,-1.88
IGFBP2 (GeneID 3485),1,-0.8,-0.47,-0.93,-1.01
